Drawing on patent EP4846849A2, “FUNGICIDAL COMPOSITIONS COMPRISING AZOLES” (dated 2026), this text covers Observed efficacy for 8 compounds.

Assay [1] relates to Alternaria solani. In words: Microtiterplate test, activity against Alternaria solani. Particulars: compound alone, 7 days after inoculation.
The subject of assay [2] is Cercospora zea maydis. In words: Microtiterplate test, activity against Cercospora zea maydis. Particulars: compound alone, 7 days after inoculation.
Assay [3] relates to Pyrenophora teres. Briefly: Microtiterplate test, activity against Pyrenophora teres. Particulars: compound alone, 7 days after inoculation.
The subject of assay [4] is Cercospora sojina. Briefly: Microtiterplate test, activity against Cercospora sojina. Particulars: 0.25 ppm, compound alone; 7 days after inoculation.
Assay [5] deals with Sclerotinia sclerotiorum. Briefly: Microtiterplate test, activity against Sclerotinia sclerotiorum. The settings on record: compound alone, 7 days after inoculation.
Assay [6] relates to Colletotrichum orbiculare. In words: Microtiterplate test, activity against Colletotrichum orbiculare. The settings on record: compound alone, 7 days after inoculation.

In the case of `CC(O)(Cn1cncn1)c1ccc(Oc2ccc(Cl)cc2)cc1C(F)(F)F` (racemic), in assay [1] (0.032 ppm), the Observed efficacy was determined as 48.

As to `COC(=O)C(O)(Cn1cncn1)c1ccc(Oc2ccc(Cl)cc2)cc1Cl` (centres unmarked), the Observed efficacy in assay [2] (0.002 ppm) was 11; in assay [2] (0.016 ppm), 30; in assay [3] (0.25 ppm), 0; in assay [3] ([…]), 0; in assay [4] it was 35; in assay [5] (0.008 ppm), 0. Moreover, the Observed efficacy in assay [5] (0.25 ppm) is recorded as 5; in assay [5] (0.5 ppm), 3; in assay [5] (1 ppm) it was 16; in assay [1] (0.016 ppm), 8; in assay [1] (0.125 ppm), 37; in assay [1] ([…]) it was 30. The Observed efficacy in assay [6] (0.008 ppm) worked out at 13; in assay [6] ([…]), 26.

For the compound `N#Cc1c[nH]cc1-c1cccc2c1OC(F)(F)O2`, the Observed efficacy in assay [3] (0.032 ppm) was 5; in assay [3] ([…]) it was 25; in assay [6] (0.016 ppm) it was 57.

For `CC1CC(C)(C)c2c(F)ccc(NC(=O)c3cn(C)nc3C(F)F)c21` (racemic), the Observed efficacy in assay [1] (0.25 ppm) is 37.

In assay [3] (0.25 ppm), `C[C@@H]1CC(C)(C)c2cccc(NC(=O)c3cn(C)nc3C(F)F)c21` came in with an Observed efficacy of 15.

For the compound `O=C(Nc1ccccc1F)c1ccc(-c2noc(C(F)(F)F)n2)cc1`, the Observed efficacy in assay [5] (0.25 ppm) turned out to be 0; in assay [5] (0.5 ppm), 0; in assay [5] (4 ppm), 10; in assay [1] (0.25 ppm), 0.

As for `S1SSSSSSS1`, the Observed efficacy was determined as 0 in assay [2] ([…]), 3 in assay [5] (0.5 ppm), 0 in assay [5] (1 ppm) and 0 in assay [1] (0.25 ppm).

In assay [3] (0.25 ppm), `COc1ccnc(C(=O)N[C@@H](C)C(=O)O[C@@H](C)C(c2ccc(F)cc2)c2ccc(F)cc2)c1OC(C)=O` displayed an Observed efficacy of 36.
